The target of this data set is T1, Crp1 (MSMEG_6189), C-terminal His6 (UniProt A0R5H1).
T1 sequence (looked up, limits assumed): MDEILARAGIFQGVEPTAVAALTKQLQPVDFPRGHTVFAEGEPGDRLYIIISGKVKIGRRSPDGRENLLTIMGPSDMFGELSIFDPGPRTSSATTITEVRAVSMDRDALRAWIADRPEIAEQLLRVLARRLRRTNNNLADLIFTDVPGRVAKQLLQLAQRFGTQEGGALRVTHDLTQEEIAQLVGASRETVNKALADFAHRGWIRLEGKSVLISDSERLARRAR
Briefly: DNase I footprinting. The following applies: CBS2 better than CBS1, footprinting: 20 mM Tris-HCl pH 8.0, 0.2 mM MgCl2, 2.1 mM KCl, 0.04 mM DTT, 11.1% glycerol, 25 C, 0.15-0.6 uM Crp1, recombinant protein, protein details: C-terminal His6, label: 5' TAMRA on non-coding strand, probe letters rebuilt from the primers and the genome, part of a longer molecule.

Construct, isoform or probe ends are uncertain for at least one entry. The comparison behind a weaker result is the experiment's own reference, which may not be listed here. Tags and fusion partners may be left off the protein sequences shown.

For the sequence “TCGTCCTCGGCGTCTTCGAGGTCGTCTCGGCGTTCGGCATCCGCAGCGGGGTCAGGAAGCTCGGCGCCGCCTTGTCGACCGGCTCACCATCGGCGCCTCCCGTGAGCTAACCCACCGCGCTACCTGCGTCGATCTCCTGGCTATCGCCGAGCATCGCTACTACACTCCGTCGTAGATCGACCTGGCAGGCTCGAAAGTAGGTCAGATGGACGCTCTGGAC (double strand) [cydA footprint fragment 271-bp]”, the binding result was “binds” (200 uM cAMP, wider, clearer protection) and “binds more weakly” (no cAMP).

These data come from paper PMC7739888, “Induction of the cydAB Operon Encoding the bd Quinol Oxidase Under Respiration-Inhibitory Conditions by the Major cAMP Receptor Protein MSMEG_6189 in Mycobacterium smegmatis”.
